Tested on: HIV-1-LAI strain
Assay: HIV-1-LAI replication in PHA-P-activated PBMCs, RT activity in cell supernatants
Assay type: cell-based
Settings: doses corresponding to plasmatic concentrations observed in animals and man

Substance: PEG12000-IFN-alfa2b: single PEG12000 molecule conjugated to free amino groups on an IFN alfa-2b molecule via a urethane linkage
- HIV replication: inhibited the HIV replication

From patent publication US20020004584A1, “HIV immune adjuvant therapy” (priority 2000, published 2002)
